Results published in ChEMBL document CHEMBL3232922, “Discovery and SAR of 6-alkyl-2,4-diaminopyrimidines as histamine H₄ receptor antagonists” (J Med Chem, 2014).

Amino acid sequences for entries named in this document (tags omitted). A change or cut given only in a name is not applied to a line headed by its entry.
UniProt Q9H3N8: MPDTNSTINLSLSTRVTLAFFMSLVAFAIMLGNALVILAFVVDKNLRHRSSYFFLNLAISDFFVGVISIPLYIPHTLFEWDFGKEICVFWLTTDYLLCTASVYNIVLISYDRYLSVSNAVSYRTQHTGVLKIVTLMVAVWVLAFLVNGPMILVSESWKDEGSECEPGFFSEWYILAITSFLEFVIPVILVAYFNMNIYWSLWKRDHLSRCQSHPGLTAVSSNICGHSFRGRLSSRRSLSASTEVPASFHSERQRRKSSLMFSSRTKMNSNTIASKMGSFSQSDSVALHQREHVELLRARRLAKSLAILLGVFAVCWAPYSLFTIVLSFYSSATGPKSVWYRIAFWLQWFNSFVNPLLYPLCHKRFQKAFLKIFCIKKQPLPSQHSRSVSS

Assays:
Histamine H4 receptor [1] = target: T1, Histamine H4 receptor (Homo sapiens, UniProt Q9H3N8); assay: Displacement of [3H]histamine from human recombinant histamine H4 receptor expressed in SK-N-MC cells after 45 mins by competition binding analysis; type: cell-based
Histamine H4 receptor [2] = target: T1, Histamine H4 receptor; assay: Agonist activity at human H4 receptor
Histamine H4 receptor [3] = target: T1, Histamine H4 receptor; assay: Antagonist activity at human histamine H4 receptor expressed in SK-N-MC cells assessed as reduction of histamine-induced inhibition of cAMP-mediated beta-galactosidase reporter gene activity treated 10 mins prior to histamine challenge by microplate reader analysis; type: functional, cell-based; conditions: read-out: pA2 (converted)

**Q.** Which Ki (Histamine H4 receptor [1]) does the source give for `CN[C@@H]1CCN(c2cc(C(C)(C)C)nc(N)n2)C1` here?
**A.** 8 nM

**Q.** And the EC50 (Histamine H4 receptor [2])?
**A.** > 10000 nM

**Q.** What about the Kb (Histamine H4 receptor [3]) of the same molecule?
**A.** 2.51 nM
